Results of unrelated studies side by side (data: NIAID ChemDB).

All rows: cytotoxicity tests; cell line: MT-2; endpoint: CC50

Conditions beyond the fields shown may differ between rows.

smiles	read by	result
COc1ccc(N(CCF)C(=O)[C@H](Cc2cc(F)cc(F)c2)NC(=O)CN2c3ccccc3N(CC(=O)N[C@@H](Cc3cc(F)cc(F)c3)C(=O)N(CCF)c3ccc(OC)cc3)S2(=O)=O)cc1	XTT	100 µM
Nc1nc(=O)n([C@H]2C=C[C@@H](OCP(=O)(O)O)O2)cc1I		>100 µg/mL
C=Cc1c(C)c2cc3[nH]c(cc4nc(cc5nc(cc1[nH]2)C(C)=C5CCC(=O)O)C(CCC(=O)O)=C4C)c(C)c3C(C)O		31.9 µg/mL
Clc1ccc(Cc2nnc(Cc3c(Cl)cccc3Cl)o2)cc1	MTT	43 µM
CN(C(=O)[C@H](Cc1cc(F)cc(F)c1)NC(=O)NS(=O)(=O)n1ccc2ccccc21)c1ccc2scnc2c1	XTT	>100 µM
CN(C(=O)[C@H](Cc1cc(F)cc(F)c1)NC(=O)CN1c2ccccc2N(CC(=O)N[C@@H](Cc2cc(F)cc(F)c2)C(=O)N(C)c2ccc3c(c2)ncn3C)S1(=O)=O)c1ccc2c(c1)ncn2C	XTT	100 µM
N#Cc1ccc(Nc2nccc(C3CC3)n2)cc1Oc1cc(F)cc(F)c1		4.3 µM
CC(C)[C@H](NC(=O)[C@H](Cc1ccccc1)C[C@H](O)[C@H](Cc1ccccc1)NC(=O)OC(C)(C)C)C(=O)N[C@@H](Cc1ccccc1)C(=O)N1CCOCC1		>100 µM
Cc1cn([C@H]2C[C@H](CF)[C@@H](CO)O2)c(=O)[nH]c1=O		>100 µM
CC(C)c1ccnc(Nc2ccc(C#N)c(Oc3cccc(/C=C/C#N)c3)c2)n1		4.1 µM
COc1cc2c(c(OC)c1)[C@@H](N1CCCC1=O)C[C@@H](c1cccc([N+](=O)[O-])c1)N2	ATP	>126 µM
Cc1cccc(Cl)c1CN1CCc2cc(-c3cnc(C)c([C@H](OC(C)(C)C)C(=O)O)c3N3CCC(C)(C)CC3)ccc2C1	MTT	≥19.5 µM
O=C1CCCN1[C@H]1C[C@@H](c2cccc([N+](=O)[O-])c2)Nc2ccc(I)cc21	MTT	>50 µM
Cc1cn([C@H]2C=C[C@@](C#N)(CO)O2)c(=O)[nH]c1=O		>100 µM
Cn1nc(NS(C)(=O)=O)c2c(Cl)ccc(-n3c(C(Cc4cc(F)cc(F)c4)NC(=O)Cn4nc(C(F)F)c5c4C(F)(F)[C@@H]4C[C@H]54)nc4cc(-c5ccccc5F)ccc4c3=O)c21	XTT	>1 µM
CC(=O)N[C@@H](Cc1ccccc1)C(=O)N[C@H](C(=O)N[C@@H](CC(C)C)[C@@H](O)CC(=O)N[C@@H](CC(C)C)C(=O)N[C@@H](Cc1ccccc1)C(N)=O)C(C)C		>138 µM
CN(C(=O)[C@H](Cc1cc(F)cc(F)c1)NC(=O)NS(=O)(=O)N(C)c1ccccc1)c1ccc2scnc2c1	XTT	>100 µM
Cc1nn(CC(=O)N[C@@H](Cc2ccccc2)C(=O)N(C)c2ccc3c(c2)OCO3)c(C(C)C)c1CC(=O)O	ATP	>20 µM
COc1ccc2nc(-c3cccc([N+](=O)[O-])c3)ccc2c1	ATP	>178 µM
COC(=O)c1ccc(Nc2ncc(Cc3c(Cl)cccc3Cl)o2)cc1	MTT	>100 µM
COc1ccc(N(C)C(=O)[C@H](Cc2ccccc2)NC(=O)c2cccc(S(=O)(=O)N[C@@H](Cc3ccccc3)C(=O)N(C)c3ccc(OC)cc3)c2)cc1	XTT	100 µM
CC[C@H](C)[C@H](NC(=O)c1ccccc1SSc1ccccc1C(=O)N[C@H](C(=O)O)[C@@H](C)CC)C(=O)O		168 µM
CN(C(=O)[C@H](Cc1cc(F)cc(F)c1)NC(=O)CN1c2ccccc2N(CC(=O)N[C@@H](Cc2cc(F)cc(F)c2)C(=O)N(C)c2ccc3snnc3c2)S1(=O)=O)c1ccc2snnc2c1	XTT	100 µM
COc1ccc2nc(-c3cccc(N)c3)ccc2c1	MTT	107.6 µM
Cn1nc(Cc2ccc(Cl)c(Cl)c2)c2ccccc2c1=O	propidium iodide	>157 µM
N#Cc1cc(Cl)cc(Oc2ccc(Cl)cc2OCCn2cc(F)c(=O)[nH]c2=O)c1	MTT	13 µM
C=Cc1c(C)c2cc3nc(cc4[nH]c(cc5nc(cc1[nH]2)C(C)=C5CO)c(C)c4CCC(=O)O)C(CCC(=O)O)=C3C		52.8 µg/mL
Nc1ncn([C@H]2CO[C@H](CO)O2)c(=O)n1		18 µM
CN(C(=O)[C@H](Cc1cc(F)cc(F)c1)NC(=O)NS(=O)(=O)N1CCc2cccnc21)c1ccc2scnc2c1	XTT	>100 µM
Cc1nn(CC(=O)N[C@@H](Cc2ccccc2)C(=O)N(C)c2ccc3c(c2)OCO3)c(CC(C)C)c1CCO	ATP	>20 µM
COc1ccc(Cc2n[nH]c(=O)c3ccccc23)cc1OC	propidium iodide	>168 µM
COC(=O)[C@H](Cc1ccccc1)NC(=O)[C@H]1/C(=C/CO)O[C@@H]2CC(=O)N21		>100 µg/mL
Cn1nc(NS(C)(=O)=O)c2c(Cl)ccc(-n3c([C@H](Cc4cc(F)cc(F)c4)NC(=O)Cn4ccc(C5CC5)n4)nc4cc(-c5ccccc5F)ccc4c3=O)c21	XTT	>1 µM
C=Cc1c(C)c2cc3[nH]c(cc4nc(cc5nc(cc1[nH]2)C(C)=C5CCC(=O)O)C(CCC(=O)O)=C4C)c(C)c3C=C		8.9 µg/mL
O=[N+]([O-])c1cccc(-c2ccc3ccccc3n2)c1	MTT	136 µM
Cc1cc(N(C)C(=O)[C@H](Cc2cc(F)cc(F)c2)NC(=O)NS(=O)(=O)N[C@@H](Cc2cc(F)cc(F)c2)C(=O)N(C)c2cnc(C)c(C)c2)cnc1C	XTT	100 µM
Cc1ccc2c(=O)[nH]nc(Cc3ccccc3Cl)c2c1	propidium iodide	>175 µM
COc1ccc(N(C)C(=O)[C@H](Cc2cc(F)cc(F)c2)NC(=O)NS(=O)(=O)N2C=CC[C@@H]2C(=O)N(C)C)cc1	XTT	>100 µM
COc1ccc(/C=C2\OC(=O)c3cc(Cl)c(Cl)cc32)cc1	propidium iodide	>155 µM
Cc1cc(/C=C/C#N)cc(Oc2cc(Nc3ncnc(C4CC4)n3)ccc2C#N)c1		1.5 µM
CN(C(=O)[C@H](Cc1cc(F)cc(F)c1)NC(=O)NS(=O)(=O)N1CCc2cccnc21)c1ccc(OC(F)(F)F)nc1	XTT	>100 µM
CC(C)(C)c1ccc(C(=O)N2CCN(C(=O)C(=O)c3c[nH]c4ccccc34)CC2)cc1	XTT	>10 µM
Cc1nn([C@H]2CO[C@@H](CO)O2)c(=O)[nH]c1=O		>100 µM
N#C/C=C/c1cccc(Oc2cc(Nc3ncnc(C4CC4)n3)ccc2C#N)c1		1.8 µM
CCc1ccc(Nc2ncc(Cc3c(F)cccc3F)o2)cc1	MTT	>100 µM
C=Cc1cn([C@H]2C=C[C@@H](OCP(=O)(O)O)O2)c(=O)[nH]c1=O		76 µg/mL
C=CCN(C(=O)[C@H](Cc1cc(F)cc(F)c1)NC(=O)CC(C)(C)CC(=O)N[C@@H](Cc1cc(F)cc(F)c1)C(=O)N(CC=C)c1ccc(OC)cc1)c1ccc(OC)cc1	XTT	100 µM
Cc1ccc2c(c1)C(O)(Cc1ccccc1Cl)N1CCN=C21	propidium iodide	52.4 µM
COc1ccnc(Nc2ccc(C#N)c(Oc3cc(C)cc(C)c3)c2)n1		1.3 µM
Cn1nc(NS(C)(=O)=O)c2c(Cl)ccc(-n3c([C@H](Cc4cc(F)cc(F)c4)NC(=O)Cn4nc(C5CC5)c5c4C(F)(F)[C@H]4C[C@@H]54)nc4nc(OCCC(F)(F)F)ccc4c3=O)c21	XTT	>0.1 µM
COc1ccnc(Nc2ccc(C#N)c(Sc3cccc(C)c3)c2)n1		0.47 µM
O=C(C(=O)N1CCN(C(=O)c2ccc(O)cc2)CC1)c1c[nH]c2ccccc12	XTT	>10 µM
Cc1cc(C)c2c(c1)N[C@H](c1cccc(N)c1)C[C@@H]2N1CCCC1=O	ATP	>149 µM
Nc1ncn([C@@H]2CO[C@H](CO)O2)c(=O)n1		17 µM
N#Cc1ccc(Oc2cc(Cl)cc(Cl)c2)c(OCCn2ccc(=O)[nH]c2=O)c1	MTT	>61 µM
CN(C(=O)[C@H](Cc1cc(F)cc(F)c1)NC(=O)NS(=O)(=O)N1CCc2cncnc21)c1ccc2scnc2c1	XTT	>100 µM
CC1=C(CCC(=O)O)c2cc3nc(cc4[nH]c(cc5[nH]c(cc1n2)c(CCC(=O)O)c5CC(=O)O)c(CCC(=O)O)c4C)C(CCC(=O)O)=C3C		78 µg/mL
O=C(C(=O)N1CCN(C(=O)c2ccccc2)CC1)c1c[nH]c2cccc(Cl)c12	XTT	>10 µM
Cc1ccc2c(c1)[C@@H](N1CCCC1=O)C[C@@H](c1cccc(N)c1)N2	MTT	>50 µM
O=C(O)c1ccc(-c2c3nc(c(-c4ccc(C(=O)O)cc4)c4ccc([nH]4)c(-c4ccc(C(=O)O)cc4)c4nc(c(-c5ccc(C(=O)O)cc5)c5ccc2[nH]5)C=C4)C=C3)cc1		30.9 µg/mL
O=C(O)C(O)c1ccccc1		>300 µg/mL
CCOC(=O)c1cccc2c(C(=O)C(=O)N3CCN(C(=O)c4ccccc4)CC3)c[nH]c12	XTT	>10 µM
C=Cc1c(C)c2cc3c(C=C)c(C)c(cc4nc(cc5nc(cc1[nH]2)C(C)=C5CCC(=O)O)C(CCC(=O)O)=C4C)n3C		40.3 µg/mL
Cn1nc(NS(C)(=O)=O)c2c(Cl)ccc(-n3c([C@H](Cc4cc(F)cc(F)c4)NC(=O)Cn4nc(C5CC5)c5c4C(F)(F)[C@@H]4C[C@H]54)nc4nc(OCCC(F)(F)F)ccc4c3=O)c21	XTT	>0.1 µM
CC(c1nnc(Nc2ccc(C#N)cc2)o1)c1c(F)cccc1F	MTT	5.2 µM
COc1cc(OC)c2ccc(-c3cccc([N+](=O)[O-])c3)nc2c1	ATP	>161 µM
CCc1cn([C@H]2C=C[C@@H](OCP(=O)(O)O)O2)c(=O)nc1N		>100 µg/mL
C=CCN(C(=O)[C@H](Cc1cc(F)cc(F)c1)NC(=O)c1ccc(F)c(C(=O)N[C@@H](Cc2cc(F)cc(F)c2)C(=O)N(CC=C)c2ccc(OC)cc2)c1)c1ccc(OC)cc1	XTT	33.3 µM
FC(F)(F)c1cc(Nc2nnc(Cc3c(Cl)cccc3Cl)o2)ccc1Cl	MTT	>100 µM
O=C(C(=O)N1CCN(C(=O)c2ccccc2O)CC1)c1c[nH]c2ccccc12	XTT	>10 µM
Cc1cn(C[C@@H](CN=[N+]=[N-])OCP(=O)(O)O)c(=O)[nH]c1=O		>500 µM
N#Cc1cc(C#N)cc(Oc2cc(Cl)ccc2OCCn2ccc(=O)[nH]c2=O)c1	MTT	77 µM
CC1=C(CCC(=O)O)c2cc3nc(cc4[nH]c(cc5[nH]c(cc1n2)c(C)c5C(O)CO)c(C)c4C(O)CO)C(C)=C3CCC(=O)O		>80 µg/mL
NC(=O)c1cc(-c2cccnc2[C@H](Cc2cc(F)cc(F)c2)NC(=O)NS(=O)(=O)N[C@@H](Cc2cc(F)cc(F)c2)c2ncccc2-c2ccc(F)c(C(N)=O)c2)ccc1F	XTT	100 µM
CCOC(=O)Cc1c(C)nn(CC(=O)N[C@@H](Cc2ccccc2)C(=O)N(C)c2ccc3c(c2)OCO3)c1C(C)C	ATP	>20 µM
Cc1cn([C@H]2C[C@H](CN=[N+]=[N-])[C@@H](CO)O2)c(=O)[nH]c1=O		>100 µM
COc1ccc(N(C)C(=O)[C@H](Cc2ccccc2)NC(=O)NS(=O)(=O)n2nc(CN)c3ccccc32)cc1	XTT	>100 µM
Nc1nc(Cl)c2ncn([C@H]3C=C[C@@H](CO)C3)c2n1		6.97 µg/mL
COc1ccc(Cc2nn(-c3ccccc3)c(=O)c3ccccc23)cc1	propidium iodide	210 µM
Nc1ccn([C@H]2CC[C@@H](CO)O2)c(=O)n1		44 µg/mL
Clc1cccc(Cl)c1Cc1nnc(Nc2ccc(COCc3ccncc3)cc2)o1	MTT	6 µM
CC(=O)OCCc1c(C(F)(F)F)nn(CC(=O)N[C@@H](Cc2ccccc2)C(=O)N(C)c2ccc3c(c2)OCO3)c1C	ATP	>20 µM
Cc1cn([C@@H]2O[C@H](CO)[C@@H](CN=[N+]=[N-])[C@H]2O)c(=O)[nH]c1=O		>100 µM
O=C1CCCN1[C@H]1C[C@@H](c2cccc([N+](=O)[O-])c2)Nc2ccccc21	ATP	51.58 µM

Repeating the final 10 entries:

smiles,read by,result
CCOC(=O)Cc1c(C)nn(CC(=O)N[C@@H](Cc2ccccc2)C(=O)N(C)c2ccc3c(c2)OCO3)c1C(C)C,ATP,>20 µM
Cc1cn([C@H]2C[C@H](CN=[N+]=[N-])[C@@H](CO)O2)c(=O)[nH]c1=O,,>100 µM
COc1ccc(N(C)C(=O)[C@H](Cc2ccccc2)NC(=O)NS(=O)(=O)n2nc(CN)c3ccccc32)cc1,XTT,>100 µM
Nc1nc(Cl)c2ncn([C@H]3C=C[C@@H](CO)C3)c2n1,,6.97 µg/mL
COc1ccc(Cc2nn(-c3ccccc3)c(=O)c3ccccc23)cc1,propidium iodide,210 µM
Nc1ccn([C@H]2CC[C@@H](CO)O2)c(=O)n1,,44 µg/mL
Clc1cccc(Cl)c1Cc1nnc(Nc2ccc(COCc3ccncc3)cc2)o1,MTT,6 µM
CC(=O)OCCc1c(C(F)(F)F)nn(CC(=O)N[C@@H](Cc2ccccc2)C(=O)N(C)c2ccc3c(c2)OCO3)c1C,ATP,>20 µM
Cc1cn([C@@H]2O[C@H](CO)[C@@H](CN=[N+]=[N-])[C@H]2O)c(=O)[nH]c1=O,,>100 µM
O=C1CCCN1[C@H]1C[C@@H](c2cccc([N+](=O)[O-])c2)Nc2ccccc21,ATP,51.58 µM

CCn: concentration that lowers growth or viability of the cells by n%. An empty or dashed field is not shown.